# Experiments:
# Assay in all cases: cell-based or functional assay
# [1] = target: SARS-CoV-2 spike protein, Omicron BF.7 (SARS-CoV-2)
# [2] = target: SARS-CoV-2 Omicron BA.4/5 spike protein (SARS-CoV-2, UniProt P0DTC2 14-1273)
# [3] = target: SARS-CoV-2 Omicron BQ.1.1 spike protein (SARS-CoV-2, UniProt P0DTC2 14-1273)
# [4] = target: SARS-CoV-2 Omicron BA.2.75.2 spike protein (SARS-CoV-2, UniProt P0DTC2 14-1273)
# [5] = target: SARS-CoV-2 Omicron XBB spike protein (SARS-CoV-2, UniProt P0DTC2 14-1273)
# [6] = target: SARS-CoV-2 Omicron BA.4/5 spike protein (SARS-CoV-2)
# [7] = target: SARS-CoV-2 Omicron BQ.1 spike protein (SARS-CoV-2)
# [8] = target: SARS-CoV-2 Omicron BQ.1.1 spike protein (SARS-CoV-2)
# [9] = target: SARS-CoV-2 Omicron BA.2.75.2 spike protein (SARS-CoV-2)
# [10] = target: SARS-CoV-2 Omicron XBB spike protein (SARS-CoV-2)
binder,measurement,setting,value
MX1089 (antibody) chain 1: QTVVTQEPSFSVSPGGTVTLTCGLSSGSVSTAYFPSWYQQTPGQAPRTLIYGTNTRSSGVPDRFSGSILGNKAALTITGAQADDESDYYCVLYMGRGIVVFGGGTKLTVLGGSSGEIVMTQSPAILSVSPGERATLSCRASQSVAINLAWYQQKPGQAPRLLIYAASSRATGIPGRFSGSGSETNFTLTISSLQSGDFAVYYCQQYITWPPSYTFGQGTKLEIKGGGGSGGSGSGGGGSASGSGEVQLVESGGALIQPGGSLRLSCAASGIIVSANYMSWVRQAPGKGLEWVSVIYSGGSTFYADSVKGRFTISRDNSKNTLYLEMNSLRAEDTAVYYCARDAPILGVSDWGQGTLVTVSSGGSSGQVQLVESGGGVVQPGRSLRLSCAASGFTLSSYGMHWVRQAPGKGLEWVAVISYDGSNKYYVDSVKGRFTISRDNSKNTLYLQMNSLRAEDTAVYYCRWAYWELLPDYYYGMDVWGQGTTVTVSSASGGSGDKTHTCPPCPAPELLGGPSVFLFPPKPKDTLMISRTPEVTCVVVDVSHEDPEVKFNWYVDGVEVHNAKTKPREEQYNSYVVSVLTVLHQDWLNGKEYKCKVSNKALPAPIEKTISKAKGQPREPQVYTLPPCRDELTKNQVSLWCLVKGFYPSDIAVEWESNGQPENNYKTTPPVLDSDGSFFKKLTVDKSRWQQGNVFSCSVLHEALHSHYTQKSLSLSPG chain 2: DTVMTQSPLSLPVTPGEPASISCRSSQSLLNSNGYNYLDWYVQKPGQSPQLLIYLGSNRASGVPDRFSGSGSGTDFTLKISRVEAEDVGVYYCMQPLQTPLFTFGPGTKVEIKGGSSGEIVLTQSPGTLSLSPGERATLSCRASQSVSSSYLAWYQQKPGQAPRLLIYSASSRATGIPDRFSGSGSGTDFTLTISRLEPEDFAVYFCQQYVGLTGWTFGQGTKVEIKGGGGSGGSGSGGGGSASGSGQMQLVQSGPEVKKPGTSVKVSCKASGFTFTSSAVQWVRQRQRLEWIGWIVVGSGNTNYAQKFQERVTITRDMSTSTAYMELSSLRSEDTAVYYCAAPNCSNVVCYDGFDIWGQGTMVTVSSGGSSGQVTLRESGPALVKPTQTLTLTCTFSGFSLSTRGVCVSWIRQPPGKALEWLAFIDWDDDKYYNTSLKTRLTISKDTSKNQVVLTMTNVHPVDTATYYCARISSHHGSSWCTTFDYWGQGALVTVSAASGGSGDKTHTCPPCPAPELLGGPSVFLFPPKPKDTLMISRTPEVTCVVVDVSHEDPEVKFNWYVDGVEVHNAKTKPREEQYNSYVVSVLTVLHQDWLNGKEYKCKVSNKALPAPIEKTISKAKGQPREPQVCTLPPSRDELTKNQVSLSCAVKGFYPSDIAVEWESNGQPENNYKTTPPVLDSDGSFFLVSKLTVDKSRWQQGNVFSCSVLHEALHSHYTQKSLSLSPG,"IC50, pseudovirus neutralization",[1],0.0226 µg/mL
same,"IC80, pseudovirus neutralization",[1],0.0643 µg/mL
MX1206 (antibody) chain 1: QTVVTQEPSFSVSPGGTVTLTCGLSSGSVSTAYFPSWYQQTPGQAPRTLIYGTNTRSSGVPDRFSGSILGNKAALTITGAQADDESDYYCVLYMGRGIVVFGGGTKLTVLGGSSGEIVLTQSPGTLSLSPGETATLSCRASQSFSSDLAWYQQKPGQAPRLLIYGASSRATGIPDRFSGSGSGTDFTLTISRLEPADFAVYYCQQYGSSPPVTFGGGTKVEIKGGGGSGGSGSGGGGSASGSGEVQLVESGGGLIQPGGSLRLSCAASGVIVSYNYMNWVRQAPGKGLEWVSVIYSGGSTFYADSVRGRFTISRDNSKNTLYLQMNSLRAEDTAVYYCARDLGPAGAFDIWGLGTMVTVSSGGSSGQVQLVESGGGVVQPGRSLRLSCAASGFTLSSYGMHWVRQAPGKGLEWVAVISYDGSNKYYVDSVKGRFTISRDNSKNTLYLQMNSLRAEDTAVYYCRWAYWELLPDYYYGMDVWGQGTTVTVSSASGGSGDKTHTCPPCPAPELLGGPSVFLFPPKPKDTLMISRTPEVTCVVVDVSHEDPEVKFNWYVDGVEVHNAKTKPREEQYNSYVVSVLTVLHQDWLNGKEYKCKVSNKALPAPIEKTISKAKGQPREPQVYTLPPCRDELTKNQVSLWCLVKGFYPSDIAVEWESNGQPENNYKTTPPVLDSDGSFFKKLTVDKSRWQQGNVFSCSVLHEALHSHYTQKSLSLSPG chain 2: DTVMTQSPLSLPVTPGEPASISCRSSQSLLNSNGYNYLDWYVQKPGQSPQLLIYLGSNRASGVPDRFSGSGSGTDFTLKISRVEAEDVGVYYCMQPLQTPLFTFGPGTKVEIKGGSSGEIVLTQSPGTLSLSPGERATLSCRASQSVSSSYLAWYQQKPGQAPRLLIYSASSRATGIPDRFSGSGSGTDFTLTISRLEPEDFAVYFCQQYVGLTGWTFGQGTKVEIKGGGGSGGSGSGGGGSASGSGQMQLVQSGPEVKKPGTSVKVSCKASGFTFTSSAVQWVRQRQRLEWIGWIVVGSGNTNYAQKFQERVTITRDMSTSTAYMELSSLRSEDTAVYYCAAPNCSNVVCYDGFDIWGQGTMVTVSSGGSSGQVTLRESGPALVKPTQTLTLTCTFSGFSLSTRGVCVSWIRQPPGKALEWLAFIDWDDDKYYNTSLKTRLTISKDTSKNQVVLTMTNVHPVDTATYYCARISSHHGSSWCTTFDYWGQGALVTVSAASGGSGDKTHTCPPCPAPELLGGPSVFLFPPKPKDTLMISRTPEVTCVVVDVSHEDPEVKFNWYVDGVEVHNAKTKPREEQYNSYVVSVLTVLHQDWLNGKEYKCKVSNKALPAPIEKTISKAKGQPREPQVCTLPPSRDELTKNQVSLSCAVKGFYPSDIAVEWESNGQPENNYKTTPPVLDSDGSFFLVSKLTVDKSRWQQGNVFSCSVLHEALHSHYTQKSLSLSPG,"IC50, pseudovirus neutralization",[1],0.0201 µg/mL
same,"IC80, pseudovirus neutralization",[1],0.0364 µg/mL
"B8 (antibody, V domains shown) VH: EVQLVESGGALIQPGGSLRLSCAASGIIVSANYMSWVRQAPGKGLEWVSVIYSGGSTFYADSVKGRFTISRDNSKNTLYLEMNSLRAEDTAVYYCARDAPILGVSDWGQGTLVTVSS VL: EIVMTQSPAILSVSPGERATLSCRASQSVAINLAWYQQKPGQAPRLLIYAASSRATGIPGRFSGSGSETNFTLTISSLQSGDFAVYYCQQYITWPPSYTFGQGTKLEIK","IC50, pseudovirus neutralization",[2],0.00697 µg/mL
same,"IC80, pseudovirus neutralization",[2],0.0148 µg/mL
same,"IC50, pseudovirus neutralization",[3],0.00457 µg/mL
same,"IC80, pseudovirus neutralization",[3],0.0217 µg/mL
same,"IC50, pseudovirus neutralization",[4],0.0122 µg/mL
same,"IC80, pseudovirus neutralization",[4],0.0274 µg/mL
same,"IC50, pseudovirus neutralization",[5],0.0134 µg/mL
same,"IC80, pseudovirus neutralization",[5],0.0472 µg/mL
"E12 (antibody, V domains shown) VH: EVQLVESGGGLIQPGGSLRLSCAASGVIVSYNYMNWVRQAPGKGLEWVSVIYSGGSTFYADSVRGRFTISRDNSKNTLYLQMNSLRAEDTAVYYCARDLGPAGAFDIWGLGTMVTVSS VL: EIVLTQSPGTLSLSPGETATLSCRASQSFSSDLAWYQQKPGQAPRLLIYGASSRATGIPDRFSGSGSGTDFTLTISRLEPADFAVYYCQQYGSSPPVTFGGGTKVEIK [E12, listing 1 of 2 here]","IC50, pseudovirus neutralization",[2],0.00462 µg/mL
same,"IC80, pseudovirus neutralization",[2],0.00921 µg/mL
same,"IC50, pseudovirus neutralization",[3],0.00529 µg/mL
same,"IC80, pseudovirus neutralization",[3],0.0174 µg/mL
same,"IC50, pseudovirus neutralization",[4],0.00699 µg/mL
same,"IC80, pseudovirus neutralization",[4],0.0401 µg/mL
same,"IC50, pseudovirus neutralization",[5],0.0126 µg/mL
same,"IC80, pseudovirus neutralization",[5],0.0311 µg/mL
"E8 (antibody, V domains shown) VH: QVTLRESGPALVKPTQTLTLTCTFSGFSLSTRGVCVSWIRQPPGKALEWLAFIDWDDDKYYNTSLKTRLTISKDTSKNQVVLTMTNVHPVDTATYYCARISSHHGSSWCTTFDYWGQGALVTVSA VL: DTVMTQSPLSLPVTPGEPASISCRSSQSLLNSNGYNYLDWYVQKPGQSPQLLIYLGSNRASGVPDRFSGSGSGTDFTLKISRVEAEDVGVYYCMQPLQTPLFTFGPGTKVEIK [E8, listing 1 of 2 here]","IC50, pseudovirus neutralization",[2],0.00013 µg/mL
same,"IC80, pseudovirus neutralization",[2],0.00049 µg/mL
same,"IC50, pseudovirus neutralization",[3],0.496 µg/mL
same,"IC80, pseudovirus neutralization",[3],1.8 µg/mL
same,"IC50, pseudovirus neutralization",[4],0.00172 µg/mL
same,"IC80, pseudovirus neutralization",[4],0.0059 µg/mL
same,"IC50, pseudovirus neutralization",[5],0.0615 µg/mL
same,"IC80, pseudovirus neutralization",[5],0.705 µg/mL
"E12 (antibody, V domains shown) VH: EVQLVESGGGLIQPGGSLRLSCAASGVIVSYNYMNWVRQAPGKGLEWVSVIYSGGSTFYADSVRGRFTISRDNSKNTLYLQMNSLRAEDTAVYYCARDLGPAGAFDIWGLGTMVTVSS VL: EIVLTQSPGTLSLSPGETATLSCRASQSFSSDLAWYQQKPGQAPRLLIYGASSRATGIPDRFSGSGSGTDFTLTISRLEPADFAVYYCQQYGSSPPVTFGGGTKVEIK [E12, listing 2 of 2 here]","IC50, pseudovirus neutralization",[6],0.00462 µg/mL
same,"IC80, pseudovirus neutralization",[6],0.00921 µg/mL
same,"IC50, pseudovirus neutralization",[7],0.0119 µg/mL
same,"IC80, pseudovirus neutralization",[7],0.0409 µg/mL
same,"IC50, pseudovirus neutralization",[8],0.00529 µg/mL
same,"IC80, pseudovirus neutralization",[8],0.0174 µg/mL
same,"IC50, pseudovirus neutralization",[9],0.00699 µg/mL
same,"IC80, pseudovirus neutralization",[9],0.0401 µg/mL
same,"IC50, pseudovirus neutralization",[10],0.0126 µg/mL
same,"IC80, pseudovirus neutralization",[10],0.0311 µg/mL
"E8 (antibody, V domains shown) VH: QVTLRESGPALVKPTQTLTLTCTFSGFSLSTRGVCVSWIRQPPGKALEWLAFIDWDDDKYYNTSLKTRLTISKDTSKNQVVLTMTNVHPVDTATYYCARISSHHGSSWCTTFDYWGQGALVTVSA VL: DTVMTQSPLSLPVTPGEPASISCRSSQSLLNSNGYNYLDWYVQKPGQSPQLLIYLGSNRASGVPDRFSGSGSGTDFTLKISRVEAEDVGVYYCMQPLQTPLFTFGPGTKVEIK [E8, listing 2 of 2 here]","IC50, pseudovirus neutralization",[6],0.00013 µg/mL
same,"IC80, pseudovirus neutralization",[6],0.00049 µg/mL
same,"IC50, pseudovirus neutralization",[7],0.124 µg/mL
same,"IC80, pseudovirus neutralization",[7],5.19 µg/mL
same,"IC50, pseudovirus neutralization",[8],0.496 µg/mL
same,"IC80, pseudovirus neutralization",[8],1.8 µg/mL
same,"IC50, pseudovirus neutralization",[9],0.00172 µg/mL
same,"IC80, pseudovirus neutralization",[9],0.0059 µg/mL
same,"IC50, pseudovirus neutralization",[10],0.0615 µg/mL
same,"IC80, pseudovirus neutralization",[10],0.705 µg/mL

# Reference: patent US20240109955A1 (published 2024)
